Results on four sequences are retold here after article PMC3917654.

For at least one entry, the source does not settle the construct or the ends of the probe. At least one verdict rests on a figure or table, not on a statement of the authors.

The data set concerns the target Imu3 (His-tagged) (Escherichia coli TA211 (uropathogenic)) (UniProt B7MAN7). The experiment in a line: competition with a labelled probe. The conditions noted are these: pUC19/EcoRI indicator DNA; EMSA: TE (10 mM Tris, 1 mM EDTA, pH 8), 37 C, 30 min, 0.8% agarose; recombinant protein; protein details: N-terminal His; single-stranded DNA. Background: A gel shift assay detects complexes by their altered migration in electrophoresis.

For the sequence AGGGTGGCGGTT [12-mer (M13)], the binding result is listed as “binds”.

GAGGGTGGCGGTT [13-mer (M13)]: the binding result is recorded as “binds”.

As to GAGGGTGGCGGTTC [14-mer (M13)], the binding result was “binds”.

As to GAGGGTGGCGGTTCT [15-mer (M13)], the binding result is given as “binds”.
